Each number is a percent effect as filed.
How 0% and 100% were set is not recorded. Most values in the screen are low, and negative values occur.
This is part of a subset picked to be rich in strong results.
Two or more numbers in one place are separate tests of the same structure; such repeats can differ widely.
A dash means the value is not listed here; it may have been measured.

Mtb glucose medium: 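Growth of Mycobacterium tuberculosis over 3 days (7H9 medium with glucose and tyloxapol); the read-out is not stated. Concentration: 50 µM. Higher reads as more growth inhibition (inferred: compounds with an IC50 in retests scored well above the rest). Size under these conditions: about 69,000 compounds, about 760 of them at 50% or above in at least one test.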
Mtb cholesterol medium: 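Growth of Mycobacterium tuberculosis over 4 days (cholesterol / DPPC medium with tyloxapol); the read-out is not stated. Compounds at 50 µM. Direction is inferred from retests: higher values go with more growth inhibition. About 69,000 compounds were tested under these conditions; 0.54% (about 370) showed 50% or more at least once.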

| Compound | Mtb glucose medium | Mtb cholesterol medium |
|---|---|---|
| `COc1cc(NC(=O)c2nc3ccccc3n(C)c2=O)cc(OC)c1` | -1.563 | - |
| `CC(=O)Nc1nc(-c2ccc(F)cc2)c[nH]1` | -22.98 | - |
| `O=C(NCCNc1ncccn1)C1CCCC1` | -2.146 & -8.449 | - |
| `CCN1CCN(C(=O)C2CCOC2)c2ccccc21` (stereo not given) | -16.02 | - |
| `Cc1n[nH]cc1CNCC(c1cccc(F)c1)N(C)C` (stereo not given) | 11.54 & 3.754 | - |
| `CC(C)c1csc(C(=O)N(C)c2ccc(Br)cn2)n1` | 93.34 & 89.15 | 73.39 |
| `N#Cc1ccccc1CN1CCCC(c2nccn2CC2CC2)C1` (stereo not given) | -5.135 & -22.67 | - |
| `CC(C)COCC(NC(=O)c1ccncc1)c1ccco1` (stereo not given) | -21.87 | - |
| `COc1ccccc1OC1CN(C(=O)Cc2c(C)nc(N)nc2C)C1` | -0.9546 | - |
| `O=C(c1ccn(COc2ccc(F)cc2)n1)N1CCCCCC1` | -1.878 | 14.95 |
| `Cc1ccc(CN(CCCn2ccnc2)Cc2c[nH]cn2)s1.O=C(O)CC(O)(CC(=O)O)C(=O)O` | 21.79 | -10.02 |
| `Cc1ccc(CN2CC(C(=O)Nc3ccccc3)C3(CCOCC3)C2)s1.O=C(O)C(F)(F)F` (stereo not given) | 57.87 | - |
| `C=C(C)COc1ccc(C(=O)NCCn2c(C)cc(C)nc2=O)cc1` | 28.65 | 6.643 |
| `O=S(=O)(c1ccccc1Cl)N1CCc2nc(C3CCNCC3)ncc2C1` | 38.67 | - |
| `CCC(CO)NCc1ccc(-c2ccc(Br)cc2)o1.Cl` (stereo not given) | 48.03 & 58.01 | 41.93 |
| `COCCN(C)CC1CCCN1S(=O)(=O)c1cccc(F)c1F` (stereo not given) | 54.18 & 44.81 | - |
| `Cc1cc(CNc2nccc(N)n2)c2[nH]c(C)c(C)c2c1` | 27.64 | 15.08 |
| `CC(C)c1cc(C(=O)N2CCN(Cc3ccc(C#N)cc3)CC2)n[nH]1` | 22.34 & 5.652 | - |
| `Cc1ccc(N2N=C(C(N)=O)S(=O)(=O)c3cccnc32)cc1` | 101.9 | 87.26 |
| `Cc1ccc(CN(C)C(=O)c2cnsn2)cc1` | 54.74 | - |
| `Cl.Clc1ccccc1CN1CCc2nc(C3CCCCN3)ncc2C1` (stereo not given) | 20.3 | - |
| `CCOCC(O)CN1CCN(C(=O)Cc2ccc(C)nc2)CC1` (stereo not given) | -29.34 | - |
| `[H][C@]12CC[C@]([H])(CN(Cc3cccc(-n4cccn4)c3)C1)N(CCC)C2` | 37.74 | 21.06 |
| `NC(=O)c1cc(C2CCCN(C(=O)CCc3ccsc3)C2)n[nH]1` (stereo not given) | -13.93 | - |
| `CCC[C@@H]1CN(C(=O)c2cc3ccccc3s2)C[C@H]1NS(C)(=O)=O` | 6.427 & 2.189 | - |
| `O=C(Nc1ccccn1)c1csc(NC2CCCC2)n1` | 35.58 & 48.73 | - |
| `Cc1oc(-c2ccccc2)nc1C(=O)NC1=NCCS1` | 18.86 & 7.202 | 11.67 |
| `CCS(=O)(=O)NCCNc1cc(-n2cccc2)ncn1` | 8.41 & 18.33 | - |
| `CSCC(C)(O)CNc1ccccn1` (stereo not given) | 11.95 | - |
| `Cc1cnc(N2C(=O)CSC2c2ccc(F)cc2)s1` (stereo not given) | 54.6 & 19.86 | - |
| `Cc1ccc2c(c1)N(C(=O)c1nccnc1N)CC(C)O2` (stereo not given) | 19 | - |
| `O=C(O)c1ccccc1-c1ccc(CN2CCOCC2)cn1` | - | 12.97 |
| `CCN1CCN(C(=O)c2c[nH]c(C(C)C)n2)c2ccccc21` | 4.349 & -8.705 | - |
| `Cc1noc(C)c1NC(=O)CCn1cc(Br)ccc1=O` | -27.24 & 7.046 | - |
| `O=C(Cn1nnn(-c2cccs2)c1=O)N(CC1CCOC1)C1CC1` (stereo not given) | -4.54 & -5.325 | -19.78 |
| `O=C(NCc1csc(Br)c1)c1ccc(=O)[nH]n1` | -21.68 | -20.51 |
| `COc1ccc2c(c1)c(-c1nc(C)ncc1CN)cn2C` | -1.111 | - |
| `CCN(CC)CCn1c(=O)oc2ccccc21.Cl` | - | 0.625 |
| `Cc1ccc(S(=O)(=O)N2CCOc3ccccc32)cc1C(N)=O` | -26.08 | - |
| `C=Cc1ccc(C(=O)N2CCCC(Nc3ccc(F)c(F)c3)C2)cc1` (stereo not given) | - | 50.5 & 32.52 |
| `CC1CCN(C(=O)c2cnn3c(-c4ccco4)ccnc23)CC1` | 11.78 | - |
| `CC1CCCCN1C(=O)c1ccc2c(c1)OCCCO2` (stereo not given) | - | -45.21 |
| `COc1cccc(-c2noc(-c3ccc(NCC(C)C)nc3)n2)c1OC` | 7.029 | - |
| `CCOc1nn(CC)cc1-c1nnc(SCc2cccnc2)n1C` | -0.9283 & -7.324 | - |
| `Cc1noc(NC(=O)c2ccc(C#N)cc2)n1` | 7.107 | - |
| `Cc1ccccc1N1CCN(c2nc(N(C)C)nc3c2CCNC3)CC1` | 55.72 | 71.18 |
| `CCn1nc(C)c2nc(C(C)C)nc(NCCCO)c21` | 13.28 | - |
| `Cc1ccc(CN2CCC3(CC(=O)N(c4cccc(F)c4)C3)C2)o1.O=C(O)C(F)(F)F` (stereo not given) | 33.52 & 29.59 | - |
| `O=C(c1cc(-c2ccco2)cs1)N1CCCC1` | 66.55 | - |
| `CCOc1nn(CC)cc1-c1nnc(SCC)n1C` | -3.258 & -13.16 | - |
| `c1ccc(-c2nc3c(c(NCCn4ccnn4)n2)CCNCC3)nc1` | -11.75 | - |
| `Br.O=C(CN(C1=NCCCCC1)c1ccc(Cl)cc1)c1ccccc1` | 85.68 | 76.74 |
| `Fc1cccc(OC2CCN(Cc3ncc[nH]3)CC2)c1` | -21.66 | - |
| `CSc1nnc(CNC(=O)Nc2ccccc2Br)n1C` | - | 1.159 & 7.174 |
| `c1ccc(CCCN2CCN(c3ccc4nncn4n3)CC2)cc1` | 16.02 | - |
| `CC(C)(NCC(=O)NCC(F)(F)F)c1ccc2c(c1)OCCO2` | 3.565 | - |
| `Cc1ccc(-c2nnc(C(C)N3CCn4c(C)nnc4C3)o2)cc1` (stereo not given) | -25.49 | - |
| `O=C(CCc1ccco1)NS(=O)(=O)N1CCOc2ccccc21` | -0.6062 & -1.454 | - |
| `CN(C)c1nccc(NC(=O)c2ccncc2)n1` | -15.78 | -3.443 |
| `C=Cc1ccc(C(=O)N2CCCC(Nc3ccccc3)C2)cc1` (stereo not given) | - | 29.82 & 25.98 |
| `CC(C#N)NS(=O)(=O)c1cccc(C(C)C)c1` (stereo not given) | 5.515 & 30.34 | - |
| `CC(C)(C)C(=O)N1CCC(COCc2ccccc2)C1` (stereo not given) | -1.977 | - |
| `CCCS(=O)(=O)NCC(C)c1ccc(F)c(F)c1` (stereo not given) | 18.35 & 14.48 | -6.74 |
| `COc1cccc2c3c(c(=O)[nH]c12)CCC(C)(C)O3` | 14.19 & 24.99 | - |
| `Cc1ccccc1N1CCN(c2cc(N(C)C)ncn2)C(C)C1` (stereo not given) | 54.23 & 37.99 | - |
| `O=C(c1cc[nH]n1)N1CCCC(c2cccc(-n3ccnc3)n2)C1` (stereo not given) | 85.39 | - |
| `NC(=O)C1(CNC(=O)CCc2ccc(Cl)s2)CCOCC1` | 9.535 | 2.327 |
| `COc1ccc(C(O)CNC(=O)NCc2csc(C)n2)cc1` (stereo not given) | -6.249 | - |
| `COCCCNC(=O)c1cc(C(C)C)nc(N2CCCCCC2)n1` | -16.81 | - |
| `CSCCC1c2nc[nH]c2CCN1Cc1ccccc1C#N` (stereo not given) | -14.61 | - |
| `c1cncc(NCCNC2CCSC2)c1` (stereo not given) | -29.33 | - |
| `Cl.NC1CCc2nc(-c3ccncc3)nc(Nc3cccc(F)c3)c2C1` (stereo not given) | 44.92 | 20.66 & 12.76 |
| `CCCc1cncnc1N1CCC(NCc2cc3ccccc3[nH]2)CC1` | 63.05 & 71.71 | 69.19 |
| `FC(F)(F)c1ccc2nc([C@H]3CCN(C4CCC4)C3)[nH]c2c1` | 32.85 & 3.753 | 14.15 |
| `CCOCCNc1nc(C2CCCC2)nc2c1cnn2C` | -0.1634 & 11.76 | - |
| `COc1ccc(NCC2(O)CCNCC2)cc1OC` | 15.14 & -4.821 | - |
| `Cc1c(C(=O)NCCC(=O)N2CCOCC2)sc2ccc(F)cc12` | 6.806 | - |
| `O=C(NCN1CCc2ccccc2C1)c1cnccn1` | -4.565 | - |
| `CN(CCCO)Cc1cc(Cl)ccc1OCC(O)CN1CCCCCC1` (stereo not given) | 50.48 | 2.139 |
| `CS(=O)(=O)N1CC[C@H](c2nc3ccc(C(F)(F)F)cc3[nH]2)C1` | 28.21 & 19.41 | - |

From ChEMBL document CHEMBL3988442, “University of Dundee, Small-Polar-MMV Screening Library” (2021).